The text below walks through data of article doi:10.1101/2023.07.27.550809.

The data set concerns T1, TimR-Strep (Listeria monocytogenes EGD-e).
T1 sequence (looked up): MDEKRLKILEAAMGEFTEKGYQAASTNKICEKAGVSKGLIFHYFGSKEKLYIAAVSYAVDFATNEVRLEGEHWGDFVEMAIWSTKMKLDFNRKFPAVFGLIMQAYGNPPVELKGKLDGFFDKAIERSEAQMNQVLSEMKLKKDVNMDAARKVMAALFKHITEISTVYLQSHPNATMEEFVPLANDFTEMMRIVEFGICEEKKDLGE
Nature of the data set: EMSA. The settings on record: boromycin; residues 1-206; probe letters rebuilt from the primers and the genome. (In general: In EMSA bound probe runs differently from free probe, usually more slowly.)

Protein sequences can lack the tags named with them.

“CGTTGTAAAACGACGGGGAATTCCATGTTCTCTCCTCCACACTCAAATTGACCACTTAGTCAACTAGAGTATAATCTCTTTTGACCAGGTAGTCAATTACGAACTATAACACAATAAAAATCTGTAAGACTGTATCCAGTAAAAGTATCCAAATTACTGTTTTCATGCCAGCTCAAGTCTTTAAAAAATCACTTTTAGCTTGATAATGCTAATTTCAATAATTGCGTTATTCCGGATAGAATAACTATATTCCAGGTGATATAATACAGTATGTAAGAAAGTTTATGGTGGTGGCTAACTCTTTCAACATGAAAGGGGGATGCCTATGGCTTTTTTGTTAGGAACTCCTGGAAAGGATAACCCATGACCGTTTATGAAGCACTCTCTTTTGCAGTCGCTTTTACAACTTTAATGTTGTTACTAAACAGTCAAAATAACACAAAAAAATAACCACTCATAAACTTTGGACGGTTTAGCCCGGGGGATCCACTAGTTCTAGAG (double strand) [PtimABR promoter fragment]”: the binding result is listed as “binds”.
